The test system of this test is A549. Briefly: relative viability (normalised to negative control = 1, bortezomib = 0) (fraction); higher = less cytotoxic. The note with it: inflammatory serum-free RHB-A with cytokines + LPS, 5 d + 24 h CellTiter-Blue. As for the experimental part: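 A549 KRAS-mutant NSCLC cells, pre-treated 5 µM GSK126 or vehicle (DMSO), were seeded at 250 cells/well in 384-well plates in serum-free RHB-A medium with inflammatory cytokines/LPS and treated with Selleck kinase inhibitor and NCI oncology compounds at 30 or 300 nM in triplicate, refreshed at 48 h. Viability was read by CellTiter-Blue after 5 d plus 24 h and normalised per plate with cellHTS2 (mean of bortezomib positive control = 0, mean of negative control = 1).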

The structures appear in SMILES notation. ± gives the standard deviation of the averaged measurements. The entries are a selection whose mix differs from that of the whole data set.

With `[As+3].[As+3].[O-2].[O-2].[O-2]` [Arsenic trioxide], the relative viability turned out to be 0.939 ± 0.1 (compound 30 nM, GSK126 pretreatment: 5 uM GSK126); 0.885 ± 0.099 (compound 30 nM, GSK126 pretreatment: none (vehicle)); 0.975 ± 0.11 (compound 300 nM, GSK126 pretreatment: 5 uM GSK126); 0.961 ± 0.069 (compound 300 nM, GSK126 pretreatment: none (vehicle)).

(Values after the supplement of paper PMC6279402.)
